Pooled drug test results. Numbers come from NIAID ChemDB, via PubChem.

All rows: tests on isolated targets

Lines come from different laboratories, so protocols vary. Percent inhibition refers to the dose given; in toxicity tests it is the harm to the cells. ICn: concentration for n% inhibition. Blank or dashed fields: not listed here. Fold resistance has wild type as its base. Two numbers with a dash give a range or band.

compound | target | mutations | method | strain | dose | read-out | species | value
O=C(O)c1ccc2c(c1)nc(-c1ccc3nc(-c4ccccc4-c4ccccc4)ccc3c1)n2C1CCCCC1 | NS5B polymerase | - | - | - | 100 µM | inhibition | Hepatitis C virus | 101%
CCOC(=O)c1cc2nc(-c3ccccc3)cc(-c3ccccc3)n2n1 | RNA-dependent RNA polymerase | - | - | - | - | IC50 | Hepatitis C virus | >10 µM
Cc1ccc(N2CCN(c3cncc(-c4csc5ccccc45)n3)CC2)cc1C | UL97 kinase | - | - | - | - | IC50 | Cytomegalovirus | <100 µM
CCOC(=O)c1cc(-c2ccc(C=C3SC(=S)N(CC(=O)O)C3=O)o2)ccc1Cl | NS5 polymerase | - | - | - | - | IC50 | Bovine viral diarrhea virus | ≤1 µM
CC(=O)c1cccc(-c2cncc(N3CCN(c4cccc(Cl)c4)CC3)n2)c1 | UL97 kinase | - | - | - | - | IC50 | Cytomegalovirus | <10 µM
CC(C)c1c(-c2ccc(OCc3ccccc3)cc2)cnc2c(C(=O)O)cnn12 | RNA-dependent RNA polymerase | - | - | - | - | IC50 | Hepatitis C virus | >10 µM
CCCCCCCCCCCNc1nnc(NC(=O)c2ccc(C)cc2)s1 | Polymerase | - | - | - | - | IC50 | Human cytomegalovirus | >25 µM
CN(C)CCNC(=O)c1ccc(-c2ccc(Cl)cc2)c(-c2ccc3cc(-c4nc5cc(C(=O)O)ccc5n4C4CCCCC4)ccc3n2)c1 | NS5B polymerase | - | - | - | 100 µM | inhibition | Hepatitis C virus | 99.95%
CN1CCN(c2cc3c(cc2F)c(=O)c(C(=O)O)cn3C2CC2)CC1 | Topoisomerase II | - | - | - | - | IC50 | Streptococcus pneumoniae | 5.58 µg/mL
CCCCCCCCCCCNc1nnc(NC(=O)/C=C/c2ccccc2)s1 | Polymerase | - | - | - | - | IC50 | Human cytomegalovirus | >25 µM
C[C@H]1NCc2cc(-c3ccc4c(=O)c(C(=O)O)cn(C5CC5)c4c3OC(F)F)ccc21 | DNA gyrase | - | - | - | - | IC50 | Streptococcus pneumoniae | 30.6 µg/mL
Fc1ccc(-c2cncc(N3CCN(c4ccncc4)CC3)n2)c(F)c1 | UL97 kinase | - | - | - | 1 µM | inhibition | Cytomegalovirus | <50%
O=C(NC(CC1CCCCC1)C(=O)O)c1ccc2c(c1)nc(-c1ccc3nc(-c4ccccc4)cnc3c1)n2C1CCCCC1 | NS5B polymerase | - | - | - | 33 µM | inhibition | Hepatitis C virus | 97.4%
Nc1nc(N)c2nc(Cc3ccc4ccccc4c3)c(Cc3ccc4ccccc4c3)nc2n1 | Dihydrofolate reductase | - | - | TYPE 1 | - | IC50 | Cryptosporidium parvum | >10 µM
O=C(O)c1cc2nc(-c3ccccc3OCc3ccccc3)cc(-c3ccc(-c4ccccc4)cc3)n2n1 | RNA-dependent RNA polymerase | - | - | - | - | IC50 | Hepatitis C virus | 1–10 µM
O=C(O)CCN1C(=O)C(=Cc2ccc(-c3ccc(Cl)cc3)o2)SC1=S | NS5 polymerase | - | - | - | - | IC50 | Bovine viral diarrhea virus | ≤1 µM
O=C(N[C@@H](Cc1cc2ccccc2[nH]1)C(=O)O)c1cc2nc(-c3cccs3)c(C3CCCCC3)c(=O)n2[nH]1 | RNA-dependent RNA polymerase | - | - | - | - | IC50 | Hepatitis C virus | <1 µM
O=C(O)c1ccc2c(c1)nc(-c1ccc3nc(-c4cc[nH]c4)ccc3c1)n2C1CCCCC1 | NS5B polymerase | - | - | - | 33 µM | inhibition | Hepatitis C virus | 88.94%
O=C(O)c1cnn2c(-c3ccccc3Cl)cc(-c3ccc(F)cc3)nc12 | RNA-dependent RNA polymerase | - | - | - | - | IC50 | Hepatitis C virus | >10 µM
c1ccc(C2CCN(c3cncc(-c4ccoc4)n3)CC2)cc1 | UL97 kinase | - | - | - | - | IC50 | Cytomegalovirus | <100 µM
Nc1nc(N)c2c(n1)CCc1ccc(Cl)cc1-2 | Dihydrofolate reductase | - | - | TYPE 2 | - | IC50 | Cryptosporidium parvum | >10 µM
N[C@@H]1[C@H](O)[C@@H](O)[C@H](O)[C@H]2O[C@@H]12 | Amyloglucosidase | - | - | - | 100 µM | inhibition | Aspergillus niger | 18%
Nc1ccc(-c2ccc3cc(-c4nc5cc(C(=O)O)ccc5n4C4CCCCC4)ccc3n2)cc1 | NS5B polymerase | - | - | - | 100 µM | inhibition | Hepatitis C virus | 95.33%
Oc1ccc(CN[C@@H]2[C@H](O)[C@@H](O)[C@H](O)[C@H]3O[C@@H]23)cc1 | Beta-D-xylosidase | - | - | - | - | Ki | Aspergillus niger | 48 µM
Nc1nc2c(ncn2[C@H]2CO[C@@H](COP(=O)(O)OP(=O)(O)OP(=O)(O)O)O2)c(=O)[nH]1 | Reverse transcriptase | RT-K65R K103N | radiometric | - | - | fold resistance | HIV | 0.81
O=C(O)CCN1C(=O)C(=Cc2ccc(-c3cc(Cl)cc(Cl)c3)o2)SC1=S | NS5 polymerase | - | - | - | - | IC50 | Bovine viral diarrhea virus | ≤1 µM
Nc1c(Cl)cc(-c2ccc3cc(-c4nc5cc(C(=O)O)ccc5n4C4CCCCC4)ccc3n2)cc1Cl | NS5B polymerase | - | - | - | 33 µM | inhibition | Hepatitis C virus | 98.36%
O=C(/C=C/c1ccccc1)Nc1nnc(NCCC(c2ccccc2)c2ccccc2)s1 | Polymerase | - | - | - | - | IC50 | Human cytomegalovirus | >25 µM
COc1ccc(-c2ccc(Cl)cc2)c(-c2ccc3cc(-c4[nH]c5cc(C(=O)O)ccc5c4C4CCCCC4)ccc3n2)c1 | NS5B polymerase | - | - | - | 33 µM | inhibition | Hepatitis C virus | 97.55%
O=C(NS(=O)(=O)C(F)(F)F)c1cnn2c(C3CCCCC3)c(-c3ccc(F)cc3)cnc12 | RNA-dependent RNA polymerase | - | - | - | - | IC50 | Hepatitis C virus | 1–10 µM
O=C1NC(=S)SC1=Cc1ccc(-c2ccc(Cl)c(Cl)c2)o1 | NS5 polymerase | - | - | - | - | IC50 | Bovine viral diarrhea virus | ≤1 µM
O=C(O)c1ccc2c(c1)nc(-c1ccc3nc(-c4ccccc4)cc(Nc4ccc(Cl)cc4)c3c1)n2C1CCCCC1 | NS5B polymerase | - | - | - | 100 µM | inhibition | Hepatitis C virus | 101%
Fc1ccc(N2CCN(c3cncc(-c4ccc(C(F)(F)F)cc4)n3)CC2)cc1 | UL97 kinase | - | - | - | - | IC50 | Cytomegalovirus | <10 µM
NC1CCN(c2c(F)cc3c(=O)c(C(=O)O)cn(C4CC4)c3c2Cl)C1 | Topoisomerase II | - | - | - | - | IC50 | Streptococcus pneumoniae | 3.52 µg/mL
O=C(Nc1nnc(NCc2cccc3ccccc23)s1)c1ccc(F)cc1F | Polymerase | - | - | - | - | IC50 | Human cytomegalovirus | >25 µM
O=C(c1ccc(-c2ccc(Cl)cc2)c(-c2ccc3cc(-c4nc5ccccc5n4C4CCCCC4)ccc3n2)c1)N1CCCC1 | NS5B polymerase | - | - | - | 33 µM | inhibition | Hepatitis C virus | 91.13%
O=C(O)c1ccc(N2C(=O)C(=Cc3ccc(-c4cccc(C(F)(F)F)c4)o3)SC2=S)cc1 | NS5 polymerase | - | - | - | - | IC50 | Bovine viral diarrhea virus | ≤1 µM
COc1c(N2CCNC(C)C2)c(F)cc2c(=O)c(C(=O)O)cn(C3CC3)c12 | DNA gyrase | - | - | - | - | IC50 | Streptococcus pneumoniae | 46.4 µg/mL
COc1cccc(CC2CCc3nc(N)nc(N)c3C2)c1 | Dihydrofolate reductase | - | - | TYPE 2 | - | IC50 | Cryptosporidium parvum | 1.2 µM
CCCCCCCC/C=C/CCCCCCCC(=O)Nc1nnc(NCc2ccccn2)s1 | Polymerase | - | - | - | - | IC50 | Human cytomegalovirus | >25 µM
O[C@@H]1[C@@H](O)[C@@H](NCc2ccc(C(F)(F)F)cc2)[C@H]2O[C@H]2[C@H]1O | Beta-D-xylosidase | - | - | - | 100 µM | inhibition | Aspergillus niger | 42%
O=C(Nc1nnc(NCc2ccc(F)cc2)s1)c1cc2ccccc2s1 | Polymerase | - | - | - | - | IC50 | Human cytomegalovirus | >25 µM
c1cc(N2CCN(c3cncc(-c4ccsc4)n3)CC2)ccn1 | UL97 kinase | - | - | - | - | IC50 | Cytomegalovirus | <10 µM
COc1ccc(-c2ccc(C=C3SC(=S)N(c4ccc(C(=O)O)cc4)C3=O)o2)cc1OC | NS5 polymerase | - | - | - | - | IC50 | Bovine viral diarrhea virus | ≤1 µM
Cc1cccc(-c2cncc(N3CCN(c4ccccc4F)CC3)n2)c1C | UL97 kinase | - | - | - | - | IC50 | Cytomegalovirus | <100 µM
O[C@@H]1[C@@H](O)[C@@H](NCc2ccccc2)[C@H]2O[C@H]2[C@H]1O | Beta-D-xylosidase | - | - | - | 100 µM | inhibition | Aspergillus niger | 21%
Fc1ccc(-c2cncc(N3CCN(c4ccc(Cl)c(Cl)c4)CC3)n2)cc1 | UL97 kinase | - | - | - | 10 µM | inhibition | Cytomegalovirus | >15%
COc1cc(CN(C)c2ccc3nc(N)nc(N)c3c2Cl)cc(OC)c1OC | Dihydrofolate reductase | - | - | TYPE 1 | - | IC50 | Cryptosporidium parvum | 0.038 µM
O=C(Nc1nnc(NCCc2ccccc2)s1)c1cc(F)cc(F)c1 | Polymerase | - | - | - | - | IC50 | Human cytomegalovirus | >25 µM
O=C(O)c1ccc(N2C(=O)C(=Cc3ccc(-c4cccc(Cl)c4Cl)o3)SC2=S)cc1 | NS5 polymerase | - | - | - | - | IC50 | Bovine viral diarrhea virus | ≤1 µM
COc1ccc(OC)c(COc2ccc(-c3cnc4c(-c5nn[nH]n5)cnn4c3C3CCCCC3)cc2)c1 | RNA-dependent RNA polymerase | - | - | - | - | IC50 | Hepatitis C virus | <1 µM
CC(C)(C)c1cccc(Oc2cccc(-c3ccc(C=C4SC(=S)N(CC(=O)O)C4=O)o3)c2)c1 | NS5 polymerase | - | - | - | - | IC50 | Bovine viral diarrhea virus | ≤1 µM
N#Cc1ccc(-c2cncc(N3CCN(c4ccncc4)CC3)n2)cc1 | UL97 kinase | - | - | - | - | IC50 | Cytomegalovirus | <10 µM
COc1cccc(COc2cccc(-c3cnc4c(-c5nn[nH]n5)cnn4c3C3CCCCC3)c2)c1 | RNA-dependent RNA polymerase | - | - | - | - | IC50 | Hepatitis C virus | 1–10 µM
O=C(O)c1ccc(N2C(=O)C(=Cc3ccc(-c4cccs4)o3)SC2=S)cc1 | NS5 polymerase | - | - | - | - | IC50 | Bovine viral diarrhea virus | ≤1 µM

6 of the rows above, restated:

compound,target,mutations,method,strain,dose,read-out,species,value
O=C(O)c1ccc2c(c1)nc(-c1ccc3nc(-c4ccccc4-c4ccccc4)ccc3c1)n2C1CCCCC1,NS5B polymerase,-,-,-,100 µM,inhibition,Hepatitis C virus,101%
O=C(Nc1nnc(NCc2ccc(F)cc2)s1)c1cc2ccccc2s1,Polymerase,-,-,-,-,IC50,Human cytomegalovirus,>25 µM
CN(C)CCNC(=O)c1ccc(-c2ccc(Cl)cc2)c(-c2ccc3cc(-c4nc5cc(C(=O)O)ccc5n4C4CCCCC4)ccc3n2)c1,NS5B polymerase,-,-,-,100 µM,inhibition,Hepatitis C virus,99.95%
C[C@H]1NCc2cc(-c3ccc4c(=O)c(C(=O)O)cn(C5CC5)c4c3OC(F)F)ccc21,DNA gyrase,-,-,-,-,IC50,Streptococcus pneumoniae,30.6 µg/mL
O=C(c1ccc(-c2ccc(Cl)cc2)c(-c2ccc3cc(-c4nc5ccccc5n4C4CCCCC4)ccc3n2)c1)N1CCCC1,NS5B polymerase,-,-,-,33 µM,inhibition,Hepatitis C virus,91.13%
CC(C)(C)c1cccc(Oc2cccc(-c3ccc(C=C4SC(=S)N(CC(=O)O)C4=O)o3)c2)c1,NS5 polymerase,-,-,-,-,IC50,Bovine viral diarrhea virus,≤1 µM